According to US6258839A, “Isolation of naturally occuring isoflavanone and some clinical uses thereof” (priority 1997, dated 2001):

Tested on: HIV-1 AZT^res
Assay: in vitro anti-HIV activity, AZT resistant HIV-1
Type: cell-based

`COc1c(O)cc(C2COc3cc(O)cc(O)c3C2=O)cc1CC=C(C)C` (racemic) [PMZ-1] was tested, and the “activity against azidothymidine resistant virus” value was “active”.
